Patent publication US20120207760A1, “Compositions and Methods for the Therapy and Diagnosis of Influenza” (THERACLONE SCIENCES, published 2012)

Legend:
[1] = biological target: recombinant soluble homotrimeric HA of A/Wisconsin/67/05 (H3N2) (Influenza A virus A/Wisconsin/67/05 …)
[2] = biological target: recombinant soluble homotrimeric HA of A/Solomon Islands/3/06 (H1N1) (Influenza A virus A/Solomon …); assay: microarray, control antibody, trimeric HA
[3] = biological target: recombinant soluble homotrimeric HA of A/California/4/09 (H1N1) (Influenza A virus A/California/4/09 …); assay: microarray, control antibody, trimeric HA
[4] = biological target: T1, M2 variant of A/Panama/1/1966 (H2N2), expressed on 293 cells (influenza A virus A/Panama/1/66 (H2N2)); assay: flow cytometry on 293 cells transfected with natural M2 variants (FIG. 19b)
T1 chain: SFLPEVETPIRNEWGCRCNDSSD

[5] = biological target: T2, M2 variant of A/chicken/Hong Kong/YU427/2003 (H9N2), expressed on 293 cells (influenza A virus A/chicken/Hong …); assay: as above
T2 chain: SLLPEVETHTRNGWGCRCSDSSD

[6] = biological target: T3, M2 variant of A/chicken/Hong Kong/SF1/2003 (H9N2), expressed on 293 cells (influenza A virus A/chicken/Hong …); assay: as above
T3 chain: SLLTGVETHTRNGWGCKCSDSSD

[7] = biological target: T4, hemagglutinin (HA) of influenza A/Wisconsin/67/05 H3N2 (Influenza A virus A/Wisconsin/67/2005 …); assay: ELISA, inactivated whole virions coated; transfection supernatant set 5
[8] = biological target: T4, hemagglutinin (HA) of influenza …; assay: ELISA, inactivated whole virions coated; transfection supernatant set 3
[9] = biological target: T4, hemagglutinin (HA) of influenza …; assay: ELISA, inactivated whole virions coated; transfection supernatant set 2
[10] = biological target: T4, hemagglutinin (HA) of influenza …; assay: ELISA, inactivated whole virions coated; transfection supernatant set 1
[11] = biological target: T4, hemagglutinin (HA) of influenza …; assay: ELISA, inactivated whole virions coated; transfection supernatant set 4

B1: TCN-504 (3251_K17) (antibody, V domains shown)
VH: QVQLQESGPGLVKPSETLSLTCAVSGVSISNIDFYWGWIRQPPGKGLEWIGNIYYTGITFYNPSLSSRVAISIDTSKNQFSLTLTSVTAADTAMYYCARHYGDSEAINDAFDIWGQGTMLTVSS
VL: EIVMTQSPATLSVSPGERATLSCRASQSVGNSLAWYQQRPGQAPRLLIYGASTRATGIPPRFSGSGSGTEFTLTISSLQTEDFAVYYCQQYINWRPLSFGGGTKVEIK
Trimeric HA Binding: RLU [1]: 40500 RLU | Trimeric HA Binding: RLU [2]: 24100 RLU | Trimeric HA Binding: RLU [3]: 3330 RLU

B2: TCN-031 (23K12) (antibody, V domains shown)
VH: EVQLVESGGGLVQPGGSLRISCAASGFTVSSNYMSWVRQAPGKGLEWVSVIYSGGSTYYADSVKGRFSFSRDNSKNTVFLQMNSLRAEDTAVYYCARCLSRMRGYGLDVWGQGTTVTVSS
VL: DIQMTQSPSSLSASVGDRVTITCRTSQSISSYLNWYQQKPGKAPKLLIYAASSLQSGVPSRFSGSGSGTDFTLTISGLQPEDFATYYCQQSYSMPAFGQGTKLEIK
binding result [4]: binds | binding result [5]: binds | binding result [6]: binds

B3: TCN-032 (8I10) (antibody, V domains shown)
VH: QVQLQESGPGLVKPSETLSLTCTVSGSSISNYYWSWIRQSPGKGLEWIGFIYYGGNTKYNPSLKSRVTISQDTSKSQVSLTMSSVTAAESAVYFCARASCSGGYCILDYWGQGTLVTVSS
VL: DIQMTQSPSSLSASVGDRVTITCRASQNIYKYLNWYQQRPGKAPKGLISAASGLQSGVPSRFSGSGSGTDFTLTITSLQPEDFATYYCQQSYSPPLTFGGGTRVEIK
binding result [4]: binds | binding result [5]: binds | binding result [6]: binds

B4: TCN-523 (5248_A17) (antibody, V domains shown)
VH: QVQLVQSGAEVKKPGSSVKVSCKASGGSFSNYAFSWVRQAPGQGLEWMGGTIPLLGTTNYAQKFQGRVTISADQFTSTAYMELGSLRSEDTAVYYCTRRKMTTAFDSWGQGTLVTVSS
VL: QPVLTQPPSASASLGASVTLTCTLSSAYSNYKVDWYQQRPGKGPRFVMRVGTGGIVGSKGDGIPDRFSVLGSGLNRYLTIKNIQEEDESDYHCGADHGSGSNFVSPYVFGGGTKLTVL
OD450 [7]: 0.14 OD450 | OD450 [8]: 0.15 OD450 | OD450 [9]: 0.09 OD450 | OD450 [10]: 0.09 OD450 | OD450 [11]: 0.09 OD450
